Molecular target: SmCB1 (Schistosoma mansoni, UniProt Q8MNY2, T185A/T300A)
Details: read-out: Ki SmCB1; kinetic activity assay, triplicate, pH 5.5, 37 °C
From the text: Enzymatic activity was monitored either fluorometrically with peptide–AMC substrates, which release 7-amino-4-methylcoumarin (AMC) as a fluorescent product, or spectrophotometrically with peptide–pNA substrates, which liberate p-nitroaniline (pNA). Reaction rates were obtained from the slopes of the linear progress curves and expressed as relative fluorescence units per second (RFU s^−1) or as absorbance units per second (AU s^−1). […] The standard errors of measurements refer to the non-linear regression analysis.
A non-glycosylated mutant of the SmCB1 zymogen was expressed in the yeast Pichia pastoris, activated by S. mansoni legumain and purified as described previously.[25,43,58] Kinetic measurements were performed in triplicate in 96-well microplates (100 μL assay volume) at 37 °C. […] Substrate hydrolysis was measured fluorometrically in an Infinite M1000 microplate reader (Tecan) at excitation and emission wavelengths of 360 and 465 nm, respectively. Inhibition assays for human cathepsins and cruzain are described in Supplemental Experimental Procedures.

Row | Substance | Ki [µM]
1 | 9-SH-closo-1,2-C2B10H11 [compound 2] | > 100
2 | closo-1,2-C2B10H12 [compound 1, reference compound] | > 100

Reference: publication PMC12538275, “Fat or flat? The impact of dipole moment vectors on non-covalent interactions between aromatic tags and macromolecules” (Inorganic Chemistry Frontiers, 2025)
